Experiment [1] has as its system Human immunodeficiency virus 1. Put plainly: Antiviral activity against HIV1 BaL in human HOS cells. The class given is functional, organism-based. Particulars: strain BaL.
For experiment [2], the system named is Human immunodeficiency virus 1. Put plainly: Antiviral activity against HIV1 BaL in human PBL cells. In kind it is functional, organism-based. The note with it: strain BaL.

Only a part of the results on these compounds is given; other tests are left out.

In turn, `N#Cc1ccc(CNC(=O)N(c2cccc(F)c2)C2CCN(CCC3(c4cccc(F)c4)CCN(C(=O)c4c(Cl)cccc4Cl)CC3)CC2)cc1` had an IC50 in experiment [1] of 2.6 nM. Regarding `N#Cc1ccc(CNC(=O)N(c2cccc(F)c2)C2CCN(CCC3(c4cccc(F)c4)CCN(C(=O)c4c(F)cccc4F)CC3)CC2)cc1`, the IC50 in experiment [2] was determined as 6.5 nM; in experiment [1], 1.9 nM. Compound `N#Cc1ccc(CNC(=O)N(c2cccc(F)c2)C2CCN(CCC3(c4cccc(F)c4)CCN(C(=O)c4cccc(C(N)=O)c4)CC3)CC2)cc1` registered an IC50 in experiment [1] of 3.7 nM.

In the case of `N#Cc1ccc(CNC(=O)N(c2cccc(F)c2)C2CCN(CCC3(c4cccc(F)c4)CCN(C(=O)c4ccc(F)cc4O)CC3)CC2)cc1`, the results for the half-inhibitory concentration (IC50) in experiment [2] and in experiment [1] were 32 nM and 6.6 nM, respectively. As to `N#Cc1ccc(CNC(=O)N(c2cccc(F)c2)C2CCN(CCC3(c4cccc(F)c4)CCN(C(=O)c4ccc(C#N)cc4)CC3)CC2)cc1`, the IC50 in experiment [2] was 26 nM; in experiment [1], 13 nM. For `CC(C)(O)C(=O)N1CCC(CCN2CCC(N(C(=O)NCc3ccc(C#N)cc3)c3cccc(F)c3)CC2)(c2cccc(F)c2)CC1` the same measures were 8.1 nM and 8 nM.

The record behind these values is ChEMBL document CHEMBL1287766, “Discovery of N-benzyl-N'-(4-pipyridinyl)urea CCR5 antagonists as anti-HIV-1 agents (II): modification of the acyl portion” (Bioorg Med Chem Lett, 2010).
